Measured values from several laboratories, pooled; numbers as filed in NIAID ChemDB.

All rows: growth or infection tests; species: HIV-1; read-out: EC50

An empty or dashed field is not shown.

COc1cnc(-n2cnc(C)n2)c2[nH]cc(C(=O)C(=O)N3CCN(C(=NC#N)c4ccccc4)CC3)c12 ; cell line: HeLa(CD4+) + HeLa ; strain: Luciferase reporter virus ; read by: luciferase ; value: <0.5 µM
CN(C)C(=O)C(=O)N1CCC2(CC1)NCCn1c2nc(C(=O)NCc2ccc(F)cc2)c(O)c1=O ; cell line: MT-2 ; strain: NL4-3 ; read by: luciferase / reporter gene ; value: 0.01–0.1 µM
COC(=O)N[C@H](C(=O)N[C@@H](Cc1ccccc1)C[C@H](O)[C@H](Cc1ccc(-c2ccc(O)cc2)cc1)NC[C@@H](NC(=O)OC)C(C)(C)C)C(C)(C)C ; cell line: MT-4 ; setting: 50% human serum ; strain: pNL4-3 ; read by: MTT ; value: 71 nM
COc1ccc(Br)c2[nH]cc(C(=O)C(=O)N3CCN(/C(=N/S(C)(=O)=O)c4ccccc4)CC3)c12 ; cell line: HeLa(CD4+) + HeLa ; strain: Luciferase reporter virus ; read by: luciferase ; value: <0.5 µM
COC(=O)[C@H](Cc1ccccc1)NP(=O)(N[C@@H](Cc1ccccc1)C(=O)OC)OC[C@H]1O[C@@H](n2cc(C)c(=O)[nH]c2=O)C[C@@H]1N=[N+]=[N-] ; cell line: C8166 ; strain: RF ; read by: antigen ; value: 0.05 µM
CC(C)N=C(c1ccccc1)N1CCN(C(=O)C(=O)c2c[nH]c3c(-n4ccnn4)ncc(F)c23)CC1 ; cell line: HeLa(CD4+) + HeLa ; strain: Luciferase reporter virus ; read by: luciferase ; value: <0.5 µM
O=C(O)[C@H]1O[C@@H](Oc2cc3oc(-c4ccc(O)cc4)cc(=O)c3c(O)c2O)[C@H](O)[C@@H](O)[C@@H]1O ; cell line: C8166 ; strain: IIIB ; read by: p24 ; value: 175 µM
C[C@@H]1CN(C(=N)c2ccccc2)CCN1C(=O)C(=O)c1c[nH]c2c(-n3ccnn3)ncc(F)c12 ; cell line: HeLa(CD4+) + HeLa ; strain: Luciferase reporter virus ; read by: luciferase ; value: <0.5 µM
Cc1nnc(C(=O)NC(C)(C)c2nc(C(=O)NCc3ccc(F)cc3)c(O)c(=O)n2C)o1 ; cell line: CEM-GXR ; strain: NL4-3 ; changes: T97A E138K G140S Q148H ; read by: GFP ; value: >1 µM
COc1cnc(-n2cnc(C)n2)c2[nH]cc(C(=O)C(=O)N3CCN(C(=NC#N)c4ccccn4)CC3)c12 ; cell line: HeLa(CD4+) + HeLa ; strain: Luciferase reporter virus ; read by: luciferase ; value: <0.5 µM
NCCSSCCN ; cell line: Macrophage ; strain: BaL ; read by: p24 ; value: ~50 µM
O=C(CCC(CCC(=O)NCCc1c[nH]c2ccccc12)(CCC(=O)NCCc1c[nH]c2ccccc12)NC(=O)CCOCC(COCCC(=O)NC(CCC(=O)NCCc1c[nH]c2ccccc12)(CCC(=O)NCCc1c[nH]c2ccccc12)CCC(=O)NCCc1c[nH]c2ccccc12)(COCCC(=O)NC(CCC(=O)NCCc1c[nH]c2ccccc12)(CCC(=O)NCCc1c[nH]c2ccccc12)CCC(=O)NCCc1c[nH]c2ccccc12)COCCC(=O)NC(CCC(=O)NCCc1c[nH]c2ccccc12)(CCC(=O)NCCc1c[nH]c2ccccc12)CCC(=O)NCCc1c[nH]c2ccccc12)NCCc1c[nH]c2ccccc12 ; cell line: MT-4 ; strain: NL4-3 ; read by: MTS ; value: 45 µM
COC(=O)N[C@H](C(=O)N[C@@H](Cc1ccccc1)C[C@H](O)[C@H](Cc1ccc(-c2ccc(N)cc2)cc1)NC[C@@H](NC(=O)OC)C(C)(C)C)C(C)(C)C ; cell line: MT-4 ; strain: pNL4-3 ; read by: MTT ; value: 6 nM
CCN1c2ncc(CCOc3ccc(-c4cccc(C(=O)O)c4)cc3)cc2C(=O)N(C)c2cccnc21 ; cell line: C8166 ; strain: IIIB ; read by: p24 ; value: <0.01 µM
CC[C@]1(CO)O[C@@H](n2cnc3c(N)ncnc32)C[C@@H]1O ; cell line: HOS ; changes: (delta)Env ; read by: luciferase ; value: 0.221 µM
Cc1cc(S(N)(=O)=O)ccc1NC(=O)COc1ccc(Cl)cc1C(=O)c1cc(F)cc(C(F)(F)F)c1 ; cell line: HELA MAGI ; strain: IIIB ; changes: RT-K103N ; read by: luciferase ; value: 0.0019 µM
CC(C)C1=C2[C@H]3CC[C@@H]4[C@@]5(C)CC[C@H](OC(=O)[C@H]6C[C@@H](C(=O)O)C6(C)C)C(C)(C)[C@@H]5CC[C@@]4(C)[C@]3(C)CC[C@@]2(NC(=O)C(C)(C)NC(=O)c2ccc(Cl)cc2OCCN2CCS(=O)(=O)CC2)CC1=O ; cell line: MT-2 ; strain: 92HT599 ; read by: p24 / ELISA ; value: <0.003 µM
COC(=O)N[C@H](C(=O)N[C@@H](Cc1ccccc1)C[C@H](O)[C@H](Cc1ccc(-c2ccc(C(C)=O)cc2)cc1)NC[C@@H](NC(=O)OC)C(C)(C)C)C(C)(C)C ; cell line: MT-4 ; setting: 50% human serum ; strain: pNL4-3 ; read by: MTT ; value: 3 nM
COCCOc1ccc(C(=O)NC(C)(C)C(=O)N[C@@]23CC[C@]4(C)[C@H](CC[C@@H]5[C@@]6(C)CC[C@H](OC(=O)[C@H]7C[C@@H](C(=O)O)C7(C)C)C(C)(C)[C@@H]6CC[C@]54C)C2=C(C(C)C)C(=O)C3)cc1 ; cell line: MT-2 ; strain: 92HT599 ; read by: p24 / ELISA ; value: <0.003 µM
C[C@H]1CO[C@@H]2Cn3cc(C(=O)NCc4ccc(F)cc4F)c(=O)c(O)c3C(=O)N12 ; cell line: CEM-GXR ; strain: NL4-3 ; read by: GFP ; value: 0.0007 µM
COC(=O)C[C@H](O)[C@@H](N)C(F)(F)F ; cell line: MT-4 ; strain: IIIB ; read by: RT activity ; value: >100 µg/mL
Cc1cc(C(=O)NC(C)(C)C(=O)N[C@@]23CC[C@]4(C)[C@H](CC[C@@H]5[C@@]6(C)CC[C@H](OC(=O)[C@H]7C[C@@H](C(=O)O)C7(C)C)C(C)(C)[C@@H]6CC[C@]54C)C2=C(C(C)C)C(=O)C3)n[nH]1 ; cell line: MT-2 ; strain: 92HT599 ; read by: p24 / ELISA ; value: <0.003 µM
CS(=O)(=O)N1CCC2(CC1)OCCCn1c2nc(C(=O)NCc2ccc(F)cc2)c(O)c1=O ; cell line: MT-2 ; strain: NL4-3 ; read by: luciferase / reporter gene ; value: 0.001–0.01 µM
S=c1[nH]cc2n1CCN(Cc1ccccc1)CC2 ; cell line: CEM + CEM-SS ; strain: LAI ; read by: RT activity ; value: >100 µM
CCN1c2ncc(CCOc3ccc(-c4ccc(C(=O)O)s4)cc3C)cc2C(=O)N(C)c2cccnc21 ; cell line: C8166 ; strain: IIIB ; read by: p24 ; value: <0.01 µM
COC(=O)N[C@H](C(=O)N[C@@H](Cc1ccccc1)C[C@H](O)[C@H](Cc1ccc(-c2ccc(F)nc2)cc1)NC[C@@H](NC(=O)OC)C(C)(C)C)C(C)(C)C ; cell line: MT-4 ; setting: 50% human serum ; strain: pNL4-3 ; read by: MTT ; value: 14 nM
COC(=O)CNP(=O)(NCC(=O)OC)OC[C@H]1O[C@@H](n2cc(C)c(=O)[nH]c2=O)C[C@@H]1N=[N+]=[N-] ; cell line: C8166 ; strain: RF ; read by: antigen ; value: 0.5 µM
CCCN=C(c1ccccc1)N1CCN(C(=O)C(=O)c2c[nH]c3ccccc23)CC1 ; cell line: HeLa(CD4+) + HeLa ; strain: Luciferase reporter virus ; read by: luciferase ; value: >0.5 µM
COC(=O)N1CCC2(CC1)COCCn1c2nc(C(=O)NCc2ccc(F)cc2-n2ncnc2C)c(O)c1=O ; cell line: MT-2 ; strain: NL4-3 ; read by: luciferase / reporter gene ; value: 0.01–0.1 µM
CCN1c2ncc(CCOc3ccc(C(=O)NN)cc3C)cc2C(=O)N(C)c2cccnc21 ; cell line: C8166 ; changes: RT-K103N Y181C ; read by: p24 ; value: <0.01 µM
COC(=O)N[C@H](C(=O)N[C@@H](Cc1ccccc1)C[C@H](O)[C@H](Cc1ccc(-c2cccc(N)c2)cc1)NC[C@@H](NC(=O)OC)C(C)(C)C)C(C)(C)C ; cell line: MT-4 ; strain: pNL4-3 ; read by: MTT ; value: 5 nM
C=C(C)[C@@H]1CC[C@]2(C(=O)NCCCCCCCC(=O)N[C@@H](CC(C)C)[C@@H](O)CC(=O)O)CC[C@]3(C)[C@H](CC[C@@H]4[C@@]5(C)CC[C@H](O)C(C)(C)[C@@H]5CC[C@]43C)[C@@H]12 ; cell line: MT-4 ; strain: NDK ; read by: cytopathic effect / MTT ; value: >5 µM
CNC(=O)c1ccc(-c2ccc(C[C@H](NC[C@@H](NC(=O)OC)C(C)(C)C)[C@@H](O)C[C@H](Cc3ccccc3)NC(=O)[C@@H](NC(=O)OC)C(C)(C)C)cc2)cc1 ; cell line: MT-4 ; setting: 50% human serum ; strain: pNL4-3 ; read by: MTT ; value: 56 nM
CCCCN=C(c1ccccc1)N1CCN(C(=O)C(=O)c2c[nH]c3c(-n4ccnn4)ncc(F)c23)CC1 ; cell line: HeLa(CD4+) + HeLa ; strain: Luciferase reporter virus ; read by: luciferase ; value: <0.5 µM
Cc1cn([C@H]2C[C@H](F)[C@@H](CO)O2)c(=O)[nH]c1=O ; cell line: MAGI ; strain: IIIB ; read by: single cycle ; value: <0.1 µg/mL
COC(=O)C[C@H](O)[C@@H](NC(=O)[C@H](C)NC(=O)C[C@H](O)[C@@H](NC(=O)Oc1ccccc1)C(F)(F)F)C(F)(F)F ; cell line: CEM + CEM-SS ; strain: LAI ; read by: RT activity ; value: >100 µg/mL
CC(C)C1=C2[C@H]3CC[C@@H]4[C@@]5(C)CC[C@H](OC(=O)[C@H]6C[C@@H](C(=O)O)C6(C)C)C(C)(C)[C@@H]5CC[C@@]4(C)[C@]3(C)CC[C@@]2(NC(=O)C(C)(C)NC(=O)c2ccc(CN3CCOCC3)cc2)CC1=O ; cell line: MT-2 ; strain: 92HT599 ; read by: p24 / ELISA ; value: <0.003 µM
CC(C)CC(=O)N[C@H](C(=O)N[C@H](C(=O)N[C@H]([C@@H](O)CC(=O)N[C@@H](C)C(=O)N[C@H]([C@@H](O)CC(=O)O)C(F)(F)F)C(F)(F)F)C(C)C)C(C)C ; cell line: CEM + CEM-SS ; strain: LAI ; read by: RT activity ; value: >10 µg/mL
CCCNP(=O)(NCCC)OC[C@H]1O[C@@H](n2cc(C)c(=O)[nH]c2=O)C[C@@H]1N=[N+]=[N-] ; cell line: C8166 ; strain: RF ; read by: antigen ; value: 10 µM
CN(C)S(=O)(=O)N1CCC2(CC1)OCCCn1c2nc(C(=O)NCc2ccc(F)cc2)c(O)c1=O ; cell line: MT-2 ; strain: NL4-3 ; read by: luciferase / reporter gene ; value: 0.001–0.01 µM
CC(C)=CCOc1cc(NC(=S)c2ccoc2C)ccc1Cl ; cell line: MAC ; strain: BaL ; read by: p24 ; value: 0.03 µM
CCN1c2ncc(CCOc3ccc(-c4ccc(CC(=O)O)cc4O)cc3C)cc2C(=O)N(C)c2cccnc21 ; cell line: C8166 ; strain: IIIB ; read by: p24 ; value: 0.01–0.05 µM
c1ccc(CN2CCc3cncn3CC2)cc1 ; cell line: CEM + CEM-SS ; strain: Nevirapine-resistant ; changes: RT-Y181C ; read by: RT activity ; value: 225 µM
CCOC(=O)N1CCC2(CC1)OCCn1c2nc(C(=O)NCc2ccc(F)cc2-n2cnc(C)n2)c(O)c1=O ; cell line: MT-2 ; strain: NL4-3 ; read by: luciferase / reporter gene ; value: 0.001–0.01 µM
COC(=O)N[C@H](C(=O)N[C@@H](Cc1ccccc1)C[C@H](O)[C@H](Cc1ccc(-c2cccc(CO)c2)cc1)NC[C@@H](NC(=O)OC)C(C)(C)C)C(C)(C)C ; cell line: MT-4 ; setting: 50% human serum ; strain: pNL4-3 ; read by: MTT ; value: 92 nM
COC(=O)C[C@H](O)[C@@H](NC(=O)[C@H](C)NC(=O)C[C@H](O)[C@@H](N)C(F)(F)F)C(F)(F)F ; cell line: MT-4 ; strain: IIIB ; read by: RT activity ; value: >100 µg/mL

3 of the rows above, restated:

structure,cell line,setting,strain,changes,read by,value
O=C(O)[C@H]1O[C@@H](Oc2cc3oc(-c4ccc(O)cc4)cc(=O)c3c(O)c2O)[C@H](O)[C@@H](O)[C@@H]1O,C8166,-,IIIB,-,p24,175 µM
Cc1cc(S(N)(=O)=O)ccc1NC(=O)COc1ccc(Cl)cc1C(=O)c1cc(F)cc(C(F)(F)F)c1,HELA MAGI,-,IIIB,RT-K103N,luciferase,0.0019 µM
COCCOc1ccc(C(=O)NC(C)(C)C(=O)N[C@@]23CC[C@]4(C)[C@H](CC[C@@H]5[C@@]6(C)CC[C@H](OC(=O)[C@H]7C[C@@H](C(=O)O)C7(C)C)C(C)(C)[C@@H]6CC[C@]54C)C2=C(C(C)C)C(=O)C3)cc1,MT-2,-,92HT599,-,p24 / ELISA,<0.003 µM

Two numbers with a dash give a range or band. ECn: concentration that inhibits the pathogen or its effect by n%. Rows are shuffled and stem from different studies.